Library screen at single concentrations

The values are deposited in ChEMBL (CHEMBL3988442, “University of Dundee, Small-Polar-MMV Screening Library” (2021)).

A: 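Growth of Mycobacterium tuberculosis over 4 days (cholesterol / DPPC medium with tyloxapol); the read-out is not stated. Compounds at 500 µM. Higher reads as more growth inhibition (inferred: compounds with an IC50 in retests scored well above the rest). Size under these conditions: about 18,000 compounds, about 900 of them at 50% or above in at least one test.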
B: 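Growth of Mycobacterium tuberculosis over 3 days (7H9 medium with glucose and tyloxapol); the read-out is not stated. Compounds at 500 µM. Direction is inferred from retests: higher values go with more growth inhibition. About 18,000 compounds were tested under these conditions; 7.9% (about 1,400) showed 50% or more at least once.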

Values are the deposited “Percent Effect”, in %. The controls that fix the scale are not given in the record; negative values are as filed. The entries come from a sample that favours strong results. A dash means the value is not listed here; it may have been measured.

compound,A,B
Cn1c(C(=O)N[C@H]2COC[C@@H]2O)cc2ccccc21,-,18.05
Cc1cc(=O)c(C(=O)N2CCN(C)CC2C(C)C)c[nH]1 (centres unmarked),9.531,-
NCCS(=O)(=O)c1ccc(Br)cc1,-,41.09
O=C(Cc1ccccc1O)NCCOCC1CCOC1 (centres unmarked),-,9.896
COCC(C)NC(=O)c1cnn(C)c1 (centres unmarked),35.43,-
CC(Cn1cccn1)NCC(=O)N1CCNC(=O)C1 (centres unmarked),-,6.378
CN(C(=O)C1CCOC1)c1ncc(Cl)cc1Cl (centres unmarked),-,2.315
N#Cc1ccc(-n2nccc2N)cc1,-,11.15
Cc1ccc(C)c(OC(C)C(=O)NCCS(C)(=O)=O)c1 (centres unmarked),8.321,-
CCC1CN(CCN2CCOCC2)CCN1CC(F)F (centres unmarked),-11.7,-
CC(=O)N1CCCN(S(=O)(=O)c2ncn(C)c2Cl)CC1,-,9.129
CN1CCN(C(=O)C2CCC(CN)CC2)CC1 (centres unmarked),-9.667,-
CC(CC(N)=O)C(=O)NCCCc1ccc(Br)cc1F (centres unmarked),-8.962,0.4974
CCCOc1nsnc1N1CCOCC1,-14.63,-7.841
CCN1CCN(C(=O)Nc2cc(C)ccc2OC)CC1,-,25.4
CN(C)c1ncccc1CNc1nnc(C(F)F)o1,-,26.96
CN(C)c1ccc(C(=O)NC[C@@H]2CCCO2)cn1,-,20.64
O=S(=O)(CC1CCCC1)N1CCCC(CO)C1 (centres unmarked),-,25.72
O=C(CSc1nnc(NCc2ccco2)s1)NC1CC1,13.14,26.93
Cc1cnn(CCNC(=O)CCCN2CCCCC2)c1,-,5.924
CCC(COC)NC(=O)Nc1nnc2ccccn12 (centres unmarked),-,-14.6
CCC(NC(=O)CSc1ccccn1)c1ccncc1 (centres unmarked),-12.19,3.091
CS(=O)(=O)c1ccccc1C(=O)Nc1ccccc1,-3.848,-
CC(C)(C)OC(=O)NCCC1CC(=O)C1,-,17.46
Cc1c(CN2CCSCC2)cccc1NS(C)(=O)=O,-,70.48
Cc1cc(C(=O)NCCCN2CCOCC2)c(C)o1,-,-0.9746
CC(C)n1cnnc1CCNC(=O)CCC(F)(F)F,-,3.387
Cn1ccc2ccnc(N3CCC(C(N)=O)CC3)c21,0.4883,-
CSc1cncc(NCCC(=O)N2CCCC2)n1,53.66,62.57
CCC[C@H]1CN(C(=O)CN2CCCC2=O)C[C@@H]1N,-,2.253
O=S(=O)(c1ccc(O)cc1)N1CCCCC1,40.77,-
CNS(=O)(=O)C1CCCN(c2ncc(Cl)cn2)C1 (centres unmarked),-14.49,-
CC(=O)c1ccc(C(F)F)nc1,-,21.25
CC(C(=O)Nc1ccc(C(N)=O)cc1)N1CCCC1 (centres unmarked),-,-5.414
O=C(c1cccnc1O)N1CCC(N2CCCCC2)C1 (centres unmarked),2.461,-
CN(Cc1nnc(N)o1)C(=O)c1ccccc1,11.76,-
Cc1nnc(SCC(=O)NCC2CC2)s1,-,19.42
CC(=O)Nc1ccc(CNc2nnc(C(C)C)o2)cc1,19.82,-
COCCN1CCCC(Nc2ccc(Cl)cn2)C1 (centres unmarked),70.19,70.67
COc1ccc(C(=O)NCc2c(C)noc2C)cn1,-,32.14
CN1C(=O)CCC1C(=O)N1CCc2ccc(F)cc21 (centres unmarked),-,11.22
CS(=O)(=O)NCC(=O)Nc1ccc(-n2cccn2)cc1,57.39,22.18
CCC1CN(C)c2ccccc2CN1CCS(C)(=O)=O (centres unmarked),-,-5.255
CCc1ccc(OCn2cc(N)cn2)cc1,77.29,73.03
NCCc1ccc(Br)o1,-6.908,-
CN(Cc1ccc(Cl)s1)C(=O)C1CCN(C(N)=O)CC1,-,50.27
CC(=O)c1cc(C(=O)NCCSC(F)(F)F)[nH]n1,55.94,60.82
CCCc1cc(C(N)=O)c(NC(=O)c2ccnn2C)s1,22.62,-
NC(c1ccccc1)c1c[nH]cn1 (centres unmarked),11.79,-
NC1CCN(c2ccc(C(F)(F)F)cn2)CC1,57.84,77.15
CC(=O)N1CCc2nn(C)c(=O)n2CC1,1.178,-
CC(C)[C@H](N)C(=O)N1CCOC2(CCOCC2)C1,-,2.558
CN(CCCN)C(=O)Cc1ccccc1Br,-,3.439
NCCCc1nc(-c2ccncc2)cs1,-,-0.2237

The last 4 entries again:

{"compound": "CC(=O)N1CCc2nn(C)c(=O)n2CC1", "A": 1.178}
{"compound": "CC(C)[C@H](N)C(=O)N1CCOC2(CCOCC2)C1", "B": 2.558}
{"compound": "CN(CCCN)C(=O)Cc1ccccc1Br", "B": 3.439}
{"compound": "NCCCc1nc(-c2ccncc2)cs1", "B": -0.2237}